Measured values published in PubChem BioAssay AID1964107 (National Center for Advancing Translational Sciences (NCATS), 2024).
The list shows a part of the results, in another mix than the full data. Records with an inconclusive call do not appear. Activity calls are given as the source filed them. The call rests on the fitted dose curve.

By UniProt entry, the sequences of proteins in these tests, tags left out. Where a name states a change or a piece, a line headed by the entry shows the natural chain unless it says otherwise.
UniProt Q8JUX6: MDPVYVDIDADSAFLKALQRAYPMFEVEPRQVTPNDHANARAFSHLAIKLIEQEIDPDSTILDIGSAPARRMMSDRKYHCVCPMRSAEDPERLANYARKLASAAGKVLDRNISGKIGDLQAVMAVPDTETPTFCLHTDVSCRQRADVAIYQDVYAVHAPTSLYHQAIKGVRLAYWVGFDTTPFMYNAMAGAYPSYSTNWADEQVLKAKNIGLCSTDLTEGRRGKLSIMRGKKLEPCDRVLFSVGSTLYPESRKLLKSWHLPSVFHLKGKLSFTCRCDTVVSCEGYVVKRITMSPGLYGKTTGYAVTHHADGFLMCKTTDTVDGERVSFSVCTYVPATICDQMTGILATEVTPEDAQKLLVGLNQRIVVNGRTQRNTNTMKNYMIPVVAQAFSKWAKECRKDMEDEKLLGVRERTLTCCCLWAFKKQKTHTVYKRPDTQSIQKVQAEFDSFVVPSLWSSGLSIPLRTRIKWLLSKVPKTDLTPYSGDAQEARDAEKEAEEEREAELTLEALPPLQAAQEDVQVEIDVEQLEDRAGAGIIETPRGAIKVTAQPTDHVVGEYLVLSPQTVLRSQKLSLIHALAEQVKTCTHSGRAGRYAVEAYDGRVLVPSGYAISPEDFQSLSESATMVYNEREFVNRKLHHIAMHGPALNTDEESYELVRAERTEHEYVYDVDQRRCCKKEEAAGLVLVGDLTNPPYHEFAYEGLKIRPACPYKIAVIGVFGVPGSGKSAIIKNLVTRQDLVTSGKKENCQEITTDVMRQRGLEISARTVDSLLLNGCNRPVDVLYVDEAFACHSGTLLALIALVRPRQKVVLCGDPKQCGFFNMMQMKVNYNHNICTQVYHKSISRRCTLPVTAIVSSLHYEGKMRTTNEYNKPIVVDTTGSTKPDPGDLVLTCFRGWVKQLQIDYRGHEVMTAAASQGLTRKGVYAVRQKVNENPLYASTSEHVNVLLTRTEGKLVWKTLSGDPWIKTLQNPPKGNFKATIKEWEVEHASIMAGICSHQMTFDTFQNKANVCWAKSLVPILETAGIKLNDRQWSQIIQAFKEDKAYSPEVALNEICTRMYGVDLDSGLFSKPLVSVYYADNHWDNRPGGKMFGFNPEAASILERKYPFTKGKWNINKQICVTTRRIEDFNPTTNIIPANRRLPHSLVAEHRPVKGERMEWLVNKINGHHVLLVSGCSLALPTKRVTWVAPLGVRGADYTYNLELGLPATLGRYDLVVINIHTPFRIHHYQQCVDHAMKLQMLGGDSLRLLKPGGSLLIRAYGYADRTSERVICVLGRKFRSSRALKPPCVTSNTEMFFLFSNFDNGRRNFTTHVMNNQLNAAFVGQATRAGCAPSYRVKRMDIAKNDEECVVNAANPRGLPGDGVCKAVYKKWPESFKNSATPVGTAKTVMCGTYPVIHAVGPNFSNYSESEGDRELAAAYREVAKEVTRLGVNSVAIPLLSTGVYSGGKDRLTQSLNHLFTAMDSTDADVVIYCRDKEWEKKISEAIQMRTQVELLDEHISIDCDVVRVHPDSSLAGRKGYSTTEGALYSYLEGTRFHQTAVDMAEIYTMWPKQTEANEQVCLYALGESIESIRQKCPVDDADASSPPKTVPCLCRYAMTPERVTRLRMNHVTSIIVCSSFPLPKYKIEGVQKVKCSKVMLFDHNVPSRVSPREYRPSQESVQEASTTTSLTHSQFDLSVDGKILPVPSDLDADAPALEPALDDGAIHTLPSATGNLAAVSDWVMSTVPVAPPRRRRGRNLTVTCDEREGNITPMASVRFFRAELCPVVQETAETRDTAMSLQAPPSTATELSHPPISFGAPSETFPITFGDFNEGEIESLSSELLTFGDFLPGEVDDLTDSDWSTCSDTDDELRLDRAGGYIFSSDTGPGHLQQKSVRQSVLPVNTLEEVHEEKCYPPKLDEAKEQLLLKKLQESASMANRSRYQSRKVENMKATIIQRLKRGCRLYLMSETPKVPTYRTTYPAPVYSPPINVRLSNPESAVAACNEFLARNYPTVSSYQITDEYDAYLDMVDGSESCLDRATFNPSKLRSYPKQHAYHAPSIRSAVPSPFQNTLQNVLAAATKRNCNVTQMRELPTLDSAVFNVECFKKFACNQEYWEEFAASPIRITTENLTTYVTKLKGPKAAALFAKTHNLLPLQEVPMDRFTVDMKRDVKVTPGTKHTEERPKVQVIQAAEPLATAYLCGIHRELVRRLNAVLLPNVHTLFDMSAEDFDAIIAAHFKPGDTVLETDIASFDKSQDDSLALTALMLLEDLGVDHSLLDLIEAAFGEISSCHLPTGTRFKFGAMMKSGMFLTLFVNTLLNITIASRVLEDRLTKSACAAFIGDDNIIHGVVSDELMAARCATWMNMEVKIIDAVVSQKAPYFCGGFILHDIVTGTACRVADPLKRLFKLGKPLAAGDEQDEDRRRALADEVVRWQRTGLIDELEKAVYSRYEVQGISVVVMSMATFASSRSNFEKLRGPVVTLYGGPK

Each compound was assayed against Polyprotein P1234 (Chikungunya virus (strain S27-African prototype)) (UniProt Q8JUX6) (assay: Primary qHTS for inhibitors of NSP2Pro chikungunya virus (CHIKV)). Settings: FRET peptide cleavage, fluorescence 1 h; activity change, negative = inhibition: at 24.9 µM (top of the series).
Source text: PI: Natalia J. Martinez Ph.D. National Center for Advancing Translational Sciences (NCATS), National Institute of Health (NIH), Rockville, Maryland Chikungunya virus (CHIKV) is a mosquito-borne RNA virus that has emerged as one of the most important global arboviral threats in the last decade. Although the first CHIKV vaccine has recently been FDA approved for use in healthy adults at increased risk, to date, there are no available antiviral drugs for CHIKV infection. CHIKV nsP2 protease plays a crucial role in the processing of the viral polypeptide precursor to release enzymes required for viral replication, thus making it a promising drug target for antiviral discovery. Here, we established a high-throughput pipeline to identify small molecule inhibitors of nsP2 proteolytic activity. The pipeline is composed of a suite of 1,536-well in vitro assays to support quantitative high-throughput (qHTS) screening campaigns. Specifically, we developed a fluorescence resonance energy transfer (FRET)-based assay using a fluorogenic peptide substrate encompassing an endogenous cleavage site and purified recombinant protease domain (nsP2pro). Using this assay, we interrogated ~37,000 small molecules, including those in drug repurposing libraries as well as chemically diverse and medicinal chemistry-friendly compounds. Hits were selected for follow-up validation against full-length nsP2 and an additional peptide. FRET-based 1,536-well assays for papain, hepatitis C virus NS3-4A, and human furin proteases were implemented to characterize compound selectivity. […] Novel compounds were identified to be potential nsP2 inhibitors and molecular docking analyses were performed to explain the binding mode of selected hits. In vitro antiviral activity was evaluated for a subset of compounds using a high-throughput CHIKV infection assay. To our knowledge, the pipeline presented here is unprecedented for CHIKV antiviral discovery research.
PROTOCOL TABLE (as described by Inglese J, Shamu CE and Guy RK. 2007) SEQUENCE No. (e.g., 1, 2, 3, etc.); […] (e.g., Cells, Incubation, Reagent, etc.); VALUE; DESCRIPTION. 1; Control / Compound; 20 nL; Echo 655 acoustic dispenser, Greiner 1536-well solid bottom black plate. 2; Enzyme; 4 uL; BioRAPTR FRD liquid dispenser (Beckman Coulter). 3; Incubation; 15 min; room temperature. 4; Reagent; 4 uL; 2.5 uM Peptide 2 substrate. 5; Incubation; 1 hr; room temperature. 6; Detection; Fluorescence; WiewLux microplate reader (PerkinElmer), 525 nm excitation, 598/25 nm emission. NOTES (numbers refer to sequence numbers above). 1. Briefly, 20 nL DMSO, positive control ZnAc (20nM final concentration), and test compounds were transferred into a 1,536-well solid bottom black plate (789176-F, Greiner One) via Echo 655 acoustic dispenser (Beckman Coulter). For primary screens, compounds were tested at 7 concentrations, 1:3 dilution points ranging from 25 uM to 34 nM. Follow-up confirmatory screens were carried out at 11 concentrations, 1:3 dilution points from 25 uM to 0.42 nM. 2. Four uL nsP2pro enzyme mix (150 nM final concentration) in 10 mM Tris-HCl pH 8.0 with 0.01% Tween 20 assay buffer was dispensed into the plate using a BioRAPTR FRD liquid dispenser (Beckman Coulter). 3. The plate was incubated at room temperature (protected from light) for 15 min 4. Four microliter of peptide 2 substrate (2.5 uM final concentration) in assay buffer was added to the plate. 5. After 1 hour, plates were immediately read on a ViewLux high-throughput CCD imager (Exposure = 10 sec, Gain = High, Speed = Slow, Binning = 2X). The above assay was also incorporated in the NCATS HTS facility41, which allowed for robotic liquid and compound dispensing, microplate handling, and fluorescence reading.. REFERENCE: Inglese J, Shamu CE and Guy RK, Reporting data from high throughput screening of small molecule libraries, Nature Chemical Biology, 2007, 3(8): 438-441. doi.org/10.1038/nchembio0807-438.
Further: nearly all actives have a fitted effect of over 60% in size.
On the % scale 0 is the no-effect control and ±100 the full control effect.

Row | SMILES | activity change, negative = inhibition
1 | N#Cc1c(-c2ccc(-c3no[n+]([O-])c3C#N)cc2)no[n+]1[O-] | inactive
2 | NC(=O)Nc1ccc([As](=O)(O)O)cc1 | inactive: -3.28%
3 | CCn1c(=O)n([C@@H]2CCN(CC3CCCCCCC3)C[C@H]2CO)c2ccccc21 | inactive: -4.89%
4 | CN(C)C1(c2ccccc2)CCC2(CC1)OCCc1c2[nH]c2ccc(F)cc12 (stereo unspecified) | inactive: 1.72%
5 | CN(C(=O)Cc1ccc(Cl)c(Cl)c1)[C@H]1CCCC[C@H]1N1CCCC1 | inactive: 0.692%
6 | O=C(O[C@H]1CN2CCC1CC2)C1NCc2ccccc2[C@@H]1c1ccccc1 (stereo partly specified) | inactive: -0.139%
